A mixed list of measured activities; the numbers were collected in NIAID ChemDB.

Common to all: tests on isolated targets; species: HIV-1; protein: Reverse transcriptase; measure: fold resistance

Two numbers with a dash give a range or band. Rows are shuffled and stem from different studies. Fold resistance has wild type as its base.

O=P(O)(O)OP(=O)(O)O ; mutations: RT-H208Y ; value: 2.2
COc1ccc(CSc2nc(Cc3ccc(F)cc3)c(C)c(=O)[nH]2)cc1 ; mutations: RT-181I ; read by: nucleotide incorporation / radiometric ; value: ~1
CNc1ccc(Cl)cc1S(=O)(=O)c1ccccc1[N+](=O)[O-] ; mutations: RT-V106A ; value: 0.182
C#C[C@]1(COP(=O)(O)OP(=O)(O)OP(=O)(O)O)CC[C@@H](n2ccc(N)nc2=O)O1 ; mutations: RT-M184V ; read by: nucleotide incorporation / radiometric ; value: >5
CC(C)=CCN1Cc2cc(Cl)cc3[nH]c(=O)n(c23)C[C@@H]1C ; mutations: RT-V106A P225H ; read by: nucleotide incorporation / radiometric ; value: 36
Cc1cn([C@H]2C=C[C@@H](COP(=O)(O)OP(=O)(O)OP(=O)(O)O)O2)c(=O)[nH]c1=O ; mutations: RT-T139V ; read by: nucleotide incorporation / radiometric ; value: 0.7
Cc1occc1C(=S)Nc1ccc(Cl)c(/C=N/OC(C)(C)C)c1 ; mutations: RT-M184V ; value: 1.02
CCN1c2ncc(CCOc3ccc(CC(=O)O)c4ccccc34)cc2C(=O)N(C)c2ccc(F)nc21 ; mutations: RT-K103N Y181C ; read by: nucleotide incorporation / radiometric ; value: 1–10
O=C(O)Cn1cnc2c(Oc3ccccc3[N+](=O)[O-])nc(NC(=O)OCc3ccccc3)nc21 ; strain: NNRTI-resistant ; mutations: K103N ; read by: nucleotide incorporation / radiometric ; value: 53
Cc1c(Cc2c(Cl)cccc2Cl)nc(Sc2ccc(F)cc2F)[nH]c1=O ; mutations: Y181I ; value: >40
O=C(Nc1nnc(-c2ccc3c(c2)CCCC3)o1)C1=COCCO1 ; strain: NL4-3 ; mutations: Y181C ; read by: RT activity / nucleotide incorporation / luminescence ; value: 10
CCOCn1c(Cc2ccccc2)c(C(C)C)c(=O)[nH]c1=O ; mutations: RT-V106A ; read by: nucleotide incorporation / radiometric ; value: 12
Nc1ncnc2c1ncn2[C@@H]1O[C@H](COP(=O)(O)OP(=O)(O)OP(=O)(O)O)C[C@@H]1F ; mutations: RT-A62V V75I F77L F116Y Q151M ; read by: nucleotide incorporation / radiometric ; value: 5.38
COc1ccc(CSc2nc(Cc3c(Cl)cccc3Cl)c(C)c(=O)[nH]2)c(OC)c1 ; mutations: RT-181I ; read by: nucleotide incorporation / radiometric ; value: >16
CC(C)=CCN1C(C)C(=O)Nc2ccc(Cl)cc2S1(=O)=O ; strain: IIIB ; mutations: RT-L100I ; read by: RT activity ; value: 9.09
CN(C)C(=O)/C=C/CSc1nc(N)cc(Cl)n1 ; mutations: RT-P236L ; read by: nucleotide incorporation ; value: 0.35
Nc1ccn([C@H]2C[C@H](O)[C@@H](COP(=O)(O)OP(=O)(O)OP(=O)(O)O)O2)c(=O)n1 ; mutations: RT-M184V ; read by: nucleotide incorporation / radiometric ; value: 0.96
CC(C)=CCN1C(=O)Nc2ccc(Cl)cc2S1(=O)=O ; strain: IIIB ; mutations: RT-Y181C ; read by: RT activity ; value: 3.7
CCN1c2ncc(CCOc3ccc(/C=C(\C)C(=O)O)c4ccccc34)cc2C(=O)Nc2c(C)cc(F)nc21 ; mutations: RT-V106A ; read by: nucleotide incorporation / radiometric ; value: 1–10
CCc1c([Se]c2ccccc2)n(COCc2ccccc2)c(=O)[nH]c1=O ; mutations: RT-L100I ; read by: RT activity ; value: 1
Cc1cn([C@H]2CC[C@@H](COP(=O)(O)OP(=O)(O)OP(=O)(O)O)O2)c(=O)[nH]c1=O ; mutations: RT-Y188L ; read by: RT activity ; value: 1
CCc1c([Se]c2ccccn2)n(COCc2ccccc2)c(=O)[nH]c1=O ; mutations: RT-T181C ; read by: RT activity ; value: 34
Nc1ncnc2c1ncn2[C@H]1CC[C@@H](COP(=O)(O)OP(=O)(O)OP(=O)(O)O)O1 ; mutations: RT-A62V V75I F77L F116Y Q151M ; read by: nucleotide incorporation ; value: 2.6
CCN1c2ncc(CCOc3ccc(CC(C)C(=O)O)c4ccccc34)cc2C(=O)Nc2c(C)cc(Cl)nc21 ; mutations: RT-K103N Y181C ; read by: nucleotide incorporation / radiometric ; value: 1–10
Cc1cc(S(N)(=O)=O)ccc1NC(=O)COc1ccc(Cl)cc1C(=O)c1cc(Cl)cc(C#N)c1 ; mutations: RT-V106I ; read by: fluorescence ; value: 1.5
Cc1cn([C@@H]2O[C@H](CO[Si](C)(C)C(C)(C)C)C3(OS(=O)(=O)C=C3N)[C@H]2O[Si](C)(C)C(C)(C)C)c(=O)n(C)c1=O ; strain: IIIB ; mutations: RT-P225H ; read by: RT activity ; value: 0.733
Cc1c(Cc2c(F)cccc2F)nc(Sc2ccc(Cl)cc2)[nH]c1=O ; mutations: Y181I ; value: >18
CCN1c2ncc(CCOc3ccc(C(=O)O)c4ccccc34)cc2C(=O)Nc2c(C)cc(Cl)nc21 ; mutations: RT-Y188L ; read by: nucleotide incorporation / radiometric ; value: >10
Cc1c(Cc2c(Cl)cccc2Cl)nc(Sc2ccccc2)[nH]c1=O ; mutations: RT-K103N ; value: >11
CCN1c2ncc(CCOc3ccc(/C(C)=C/C(=O)O)c4ccccc34)cc2C(=O)N(C)c2cccnc21 ; mutations: RT-K103N Y181C ; read by: nucleotide incorporation / radiometric ; value: 1–10
CC(C)(C)OC(=O)Cn1cnc2c(Oc3ccccc3[N+](=O)[O-])nc(NC(=O)OCc3ccccc3)nc21 ; strain: NNRTI-resistant ; mutations: Y188L ; read by: nucleotide incorporation / radiometric ; value: 57
CCN1c2ncc(Cc3cccc(O)c3)cc2C(=O)N(C)c2ccc(Cl)nc21 ; mutations: RT-Y181C ; read by: nucleotide incorporation / radiometric ; value: 1.13
Cc1cn([C@H]2C=C[C@@H](COP(=O)(O)OP(=O)(O)OP(=O)(O)O)O2)c(=O)[nH]c1=O ; mutations: RT-V106A ; read by: nucleotide incorporation / radiometric ; value: 1.2
CCN1c2ncc(CCOc3ccc(CCC(=O)O)c4ccccc34)cc2C(=O)Nc2c(C)ccnc21 ; mutations: RT-V106A ; read by: nucleotide incorporation / radiometric ; value: 1–10
COc1ccc(Sc2nc(Cc3c(Cl)cccc3Cl)c(C)c(=O)[nH]2)cn1 ; mutations: RT-K103N ; value: >114
Nc1ccn([C@H]2CC[C@@H](COP(=O)(O)OP(=O)(O)OP(=O)(O)O)O2)c(=O)n1 ; mutations: RT-L74V ; read by: ELISA ; value: 1.96
CN(C)P(=O)(c1ccccc1)c1c(C(N)=O)[nH]c2ccc(Cl)cc12 ; mutations: RT-Y181C ; value: >3.57
Cc1cc(SC2=C(O)C[C@@](CCc3ccc(O)cc3)(C(C)C)OC2=O)c(C(C)(C)C)cc1CO ; mutations: RT-I84V ; read by: HPLC / absorbance ; value: 1.8
Cc1c(Cc2c(Cl)cccc2Cl)nc(Sc2ccc(C#N)cc2)[nH]c1=O ; mutations: Y181I ; value: >17.4
CCN1c2ncc(CCOc3ccc(C(=O)O)c4ccccc34)cc2C(=O)N(C)c2cccnc21 ; mutations: RT-V106A ; read by: nucleotide incorporation / radiometric ; value: >10
CC(C)=CCN1C(=O)c2cccn2-c2ccc(Cl)cc2S1(=O)=O ; strain: IIIB ; mutations: RT-L100I ; read by: RT activity ; value: 21.4
Nc1ncnc2c1ncn2[C@@H]1O[C@H](COP(=O)(O)OP(=O)(O)OP(=O)(O)O)C[C@@H]1F ; mutations: RT-F77L F116Y Q151M ; read by: nucleotide incorporation ; value: 2.3
CCN1c2ncc(COc3cc[n+]([O-])c(C(F)(F)F)c3)cc2C(=O)N(C)c2ccc(Cl)nc21 ; mutations: RT-Y181C ; read by: nucleotide incorporation / radiometric ; value: 1.07
CC(C)=CCOc1cc(NC(=S)c2ccoc2C)ccc1Cl ; mutations: RT-V106A P225H ; read by: nucleotide incorporation / radiometric ; value: 134
C/C=C/CSc1cc(NC(=S)c2ccsc2C)ccc1Cl ; mutations: RT-P236L ; value: 1.13
Cc1c(Sc2ccccc2)n(COCCO)c(=O)[nH]c1=O ; mutations: RT-H221Y ; value: 4
CC(C)=CCOc1cc(NC(=S)c2ccoc2C)ccc1Cl ; mutations: RT-P236L ; value: 0.34
OCc1cn(Cc2ccncc2)c(Sc2cc(Cl)cc(Cl)c2)c1C1CCC1 ; mutations: RT-L100I ; read by: nucleotide incorporation / radiometric ; value: 14.5
CCc1c(Sc2ccccc2)n(COCc2ccccc2)c(=O)[nH]c1=O ; mutations: RT-L100I ; read by: RT activity ; value: 2
Nc1ncnc2c1ncn2[C@H]1CC[C@@H](COP(=O)(O)OP(=O)(O)OP(=O)(O)O)O1 ; mutations: RT-L74V T215Y K219Q ; read by: ELISA ; value: 5.28
Nc1ncnc2c1ncn2CCOCP(=O)(O)OP(=O)(O)OP(=O)(O)O ; mutations: RT-M184V ; read by: nucleotide incorporation / radiometric ; value: 0.57
NC(=O)OCc1cn(Cc2ccncc2)c(Sc2cc(Cl)cc(Cl)c2)c1C1CCC1 ; mutations: RT-K103N ; read by: nucleotide incorporation / radiometric ; value: 1890
COc1cc(CSc2nc(Cc3c(F)cccc3F)c(C)c(=O)[nH]2)cc(OC)c1 ; mutations: RT-181I ; read by: nucleotide incorporation / radiometric ; value: ~1
CCN1c2ncc(CNc3cccc([N+](=O)[O-])c3)cc2C(=O)N(C)c2ccc(Cl)nc21 ; mutations: RT-Y181C ; read by: nucleotide incorporation / radiometric ; value: 1.19

The last 5 rows once more:

Nc1ncnc2c1ncn2[C@H]1CC[C@@H](COP(=O)(O)OP(=O)(O)OP(=O)(O)O)O1 ; mutations: RT-L74V T215Y K219Q ; read by: ELISA ; value: 5.28
Nc1ncnc2c1ncn2CCOCP(=O)(O)OP(=O)(O)OP(=O)(O)O ; mutations: RT-M184V ; read by: nucleotide incorporation / radiometric ; value: 0.57
NC(=O)OCc1cn(Cc2ccncc2)c(Sc2cc(Cl)cc(Cl)c2)c1C1CCC1 ; mutations: RT-K103N ; read by: nucleotide incorporation / radiometric ; value: 1890
COc1cc(CSc2nc(Cc3c(F)cccc3F)c(C)c(=O)[nH]2)cc(OC)c1 ; mutations: RT-181I ; read by: nucleotide incorporation / radiometric ; value: ~1
CCN1c2ncc(CNc3cccc([N+](=O)[O-])c3)cc2C(=O)N(C)c2ccc(Cl)nc21 ; mutations: RT-Y181C ; read by: nucleotide incorporation / radiometric ; value: 1.19